Pooled drug test results. Numbers come from NIAID ChemDB, via PubChem.

All rows: whole-cell or culture tests; organism: Mycobacterium tuberculosis

MIC bound: limit read from a one-dose screen. Conditions beyond the fields shown may differ between rows. Blank or dashed fields: not listed here. Percent inhibition refers to the dose given; in toxicity tests it is the harm to the cells. MIC50, MIC90 and the like: level of inhibition, or share of isolates inhibited. ECn is the concentration giving n% inhibition of infection, replication or growth.

SMILES,read-out,strain,read by,mutations,tested at,result
COC(=O)N[C@H]1CN(c2ccc(N3C=NN(C)CC3)c(F)c2)C(=O)O1,MIC,H37Rv,GFP / reporter gene,-,-,250 µg/mL
Cc1nn(-c2ccccc2)c2c1C(c1cccc(Cl)c1)C(C#N)=C(N)O2,inhibition,H37Rv,-,-,62.5 µg/mL,13%
O=c1ccc2ncccc2n1CCN1CCC(NCc2cc(Cl)c(Cl)cn2)CC1,MIC,Canettii,resazurin,-,-,0.15 µg/mL
CN1C(=O)C=C2c3ccccc3C(=O)C3C(NC(=O)c4ccc5[nH]c6c7c(ccc6c(=O)c5c4)C(=O)c4ccccc4C7=O)=CC=C1C23,MIC bound,H37Rv,BACTEC,-,-,>12.5 µg/mL
CCCCCc1ccc(Oc2c(Cl)cccc2Cl)c(O)c1,MIC100,-,-,-,-,25 µg/mL
O=C1CSC(N2CCN(c3ccc(N4C[C@H](CO)OC4=O)cc3F)C=N2)=N1,MIC90,20 clinical isolates,resazurin,-,-,1000 µg/mL
NCCNc1ccc([N+](=O)[O-])cc1,MIC,H37Rv,-,-,-,100 µg/mL
CCCCCCCCCCN1C(=O)C(=O)c2cccc(-c3ccccc3)c21,MIC,H37Rv,-,-,-,≤20 µg/mL
O=c1nc2c(ncn2Cc2ccccc2)c(-c2ccccc2)n1Cc1ccccc1,EC50,H37Rv,-,-,-,>12.5 µg/mL
COc1ccccc1N=Nc1c(S(=O)(=O)O)cc2cc(NC(=O)Nc3ccc4c(O)c(N=Nc5ccc(S(=O)(=O)O)cc5C)c(S(=O)(=O)O)cc4c3)ccc2c1O,MIC bound,H37Rv,BACTEC,-,-,>12.5 µg/mL
CC1(C)S[C@@H]2[C@H](NC(=O)[C@H](C(=O)[O-])c3ccsc3)C(=O)N2[C@H]1C(=O)[O-].[Na+].[Na+],MIC50,28 strains,-,-,-,>64 µg/mL
CCCCN1C(=O)C(=O)c2cccc(-c3ccccc3)c21,MIC,H37Ra,-,-,-,≤20 µg/mL
Nc1c(Br)cc(Br)c2c1C(=O)c1c(Br)cc(Br)c(N)c1C2=O,MIC,H37Rv,-,-,-,>100 µg/mL
Nc1ccc(CCCCc2ccc(S(=O)(=O)F)cc2Cl)c(Cl)c1,MIC bound,H37Rv,BACTEC,-,-,>12.5 µg/mL
CCn1cc(C(=O)O)c(=O)c2cc(F)c(N3CCN(C/C(=N/OC)c4cccs4)CC3)cc21,inhibition,H37Rv,-,-,6.25 µg/mL,4%
Cc1ccc(C2c3c(nc(=S)[nH]c3N)Oc3c2c(C)nn3-c2ccccc2)cc1,inhibition,H37Rv,-,-,62.5 µg/mL,26%
COC(=O)C1=C(C)NC(Nc2ccc(Br)cc2)=NC1c1ccc(Cl)cc1,MIC,MDR-TB,agar,-,-,64 µg/mL
CC(=O)NC[C@H]1CN(c2ccc(N3C=NN(C(N)=O)CC3)c(F)c2)C(=O)O1,MIC,H37Rv,GFP / reporter gene,-,-,125 µg/mL
C.CCCCCCCCCCCCCC(=O)OCC(CCS(=O)(=O)OC1CC[C@@]2(C)C(=CC[C@@H]3C2CC[C@]2(C)C(=O)CC[C@@H]32)C1)OC(=O)CCCCCCCCCCCCC,inhibition,H37Rv,BACTEC,-,12.5 µg/mL,0%
O=C1C(=O)N(CCCCBr)c2c1cccc2-c1ccccc1,MIC,H37Rv,-,-,-,≤20 µg/mL
O=C1OCCN1c1ccc(Cl)cc1,MIC,H37Rv,-,-,-,>100 µg/mL
CCCc1c2c([nH]c(=O)c1C)C(=O)c1[nH]c(=O)c(C)c(CCC)c1C2=O,MIC90,H37Rv,resazurin / fluorescence,-,-,0.1 µg/mL
CCCCCc1ccc(Oc2c(F)cccc2Cl)c(O)c1,MIC100,-,-,-,-,25 µg/mL
CCn1cc(C(=O)O)c(=O)c2cc(F)c(N3CCN(C/C(=N/OC)c4ccco4)CC3)cc21,MIC,H37Rv,-,-,-,>6.25 µg/mL
O=C(NC(=S)Nc1cccc(Cl)c1)c1ccc(Cl)cc1Cl,MIC bound,H37Rv,BACTEC,-,-,>12.5 µg/mL
CCn1cc(C(=O)O)c(=O)c2cc(F)c(N3CCN(CC(=O)c4ccco4)CC3)cc21,inhibition,H37Rv,-,-,6.25 µg/mL,33%
CCCCCCCCCCCC(=O)OCC(COC(=O)CCCCCCCCCCC)OC(=O)CCCCCCCCCCC,MIC,H37Rv,-,-,-,>100 µg/mL
CN(CCO)CNC(=O)C1=C(O)C2(O)C(=O)C3=C(O)c4c(O)cccc4C(C)(O)C3CC2C(N(C)C)C1=O,inhibition,H37Rv,BACTEC,-,12.5 µg/mL,0%
C[C@H](CCC(=O)O)[C@H]1CC[C@H]2[C@@H]3[C@H](O)C[C@@H]4C[C@H](O)CC[C@]4(C)[C@H]3C[C@H](O)[C@]12C,MIC,H37Rv,-,-,-,>100 µg/mL
CN(C)C(=S)SCNc1ccc(NCSC(=S)N(C)C)cc1,MIC bound,H37Rv,BACTEC,-,-,≤128 µg/mL
Cc1cc2c(C(C)C)c(O)c(O)c(C=O)c2c(O)c1-c1c(C)cc2c(C(C)C)c(O)c(O)c(C=O)c2c1O,MIC,H37Rv,-,-,-,50 µg/mL
CCCCCN1C(=O)C(=O)c2cccc(-c3ccccc3)c21,MIC,H37Rv,-,-,-,≤20 µg/mL
NC(=S)N=Nc1c2c3ccccc3[nH]c(N3CCC(O)CC3)c-2c2ccccc12,MIC90,H37Rv,resazurin / fluorescence,-,-,>20 µg/mL
O=C(O)CSCC(=O)O,MIC,H37Rv,-,-,-,>100 µg/mL
CC1=C(/C=C/C(C)=N/NC(=O)c2ccc[n+](C)c2)C(C)(C)CCC1.Cc1ccc(S(=O)(=O)[O-])cc1,inhibition,H37Rv,BACTEC,-,12.5 µg/mL,-2%
CCCCCc1ccc(Oc2ccc([N+](=O)[O-])cc2C)c(O)c1,MIC100,-,-,-,-,6.25 µg/mL
CC(C)CN1C(=O)C(=O)c2cccc(-c3ccccc3)c21,MIC,H37Rv,-,-,-,≤20 µg/mL
Cc1ccc(C2c3c(nc(=O)[nH]c3N)Oc3c2c(C)nn3-c2ccccc2)cc1,inhibition,H37Rv,-,-,62.5 µg/mL,45%
CC(=O)Nc1ccc2nc(C)ccc2c1,MIC,H37Rv,-,-,-,50 µg/mL
CC1COc2c(N3CCN(C)CC3)c(F)cc3c(=O)c(C(=O)O)cn1c23,MIC,BCG,resazurin,-,-,0.16 µg/mL
CC[Si](CC)(OCCc1ccncc1)OCCc1ccncc1,MIC,H37Rv,-,-,-,>100 µg/mL
COC(=O)C1=C(C)NC(Nc2cccc(SC(F)(F)F)c2)=NC1c1ccc(Cl)cc1,MIC,MDR-TB,agar,-,-,16 µg/mL
CCc1cc(C(N)=S)ccn1,MBC,1620-6,-,-,-,5 µg/mL
CO[C@H]1/C=C/O[C@@]2(C)Oc3c(C)c(O)c4c(O)c(c(/C=N/N5C(C)CN(Cc6ccccc6)CC5C)c(O)c4c3C2=O)NC(=O)/C(C)=C\C=C\[C@H](C)[C@H](O)[C@@H](C)[C@@H](O)[C@@H](C)[C@H](OC(C)=O)[C@@H]1C,MIC,XDR-TB,agar,-,-,>64 µg/mL
CS(=O)(=O)c1ccc(N)c(S(C)(=O)=O)c1,MIC,H37Rv,-,-,-,>100 µg/mL
Cn1nc2ccc3nccc(NCCNCCO)c3c2n1,MIC bound,H37Rv,resazurin,-,-,>6.25 µg/mL
Cc1nn(-c2ccccc2)c2c1C(c1ccccc1Cl)c1c(nc(=O)[nH]c1N)O2,inhibition,H37Rv,-,-,62.5 µg/mL,38%
CCN(CCCCN1C(=O)C(=O)c2ccccc21)Cc1ccccc1,MIC,H37Ra,-,-,-,≤20 µg/mL
COc1cccc(/C=N/N(C)c2c([N+](=O)[O-])cc(C(F)(F)F)cc2[N+](=O)[O-])c1O,MIC bound,H37Rv,BACTEC,-,-,>12.5 µg/mL
CCOC(=O)Nc1csc(CCCCC(=O)O)c1NC(=O)c1ccccc1,MIC,H37Rv,-,-,-,100 µg/mL
N#CC1c2ccccc2-c2ccccc2N1C(=O)c1ccccc1,inhibition,H37Rv,BACTEC,-,12.5 µg/mL,-9%
CCOC(=O)c1cc(C)n(-c2ccc(S(=O)(=O)c3ccc(-n4c(C)cc(C(=O)OCC)c4C)cc3)cc2)c1C,MIC,H37Rv,-,-,-,>100 µg/mL
NC[C@H]1O[C@H](O[C@H]2[C@H](O)[C@@H](O[C@H]3O[C@H](CO)[C@@H](O)[C@H](N)[C@H]3O)[C@H](N)C[C@@H]2N)[C@H](O)[C@@H](O)[C@@H]1O,MIC90,H37Rv,resazurin / fluorescence,Cycloserine-resistant,-,0.98 µg/mL
Cc1ccc2c(c1)P(=O)(O)c1cc(C)ccc1S2(=O)=O,MIC bound,H37Rv,BACTEC,-,-,>12.5 µg/mL
Cc1nn(-c2ccccc2)c2c1C(c1ccc(O)cc1)C(C#N)=C(N)O2,inhibition,-,-,-,62.5 µg/mL,11%
CO/N=C(/CN1CCN(c2cc3c(cc2F)c(=O)c(C(=O)O)cn3C2CC2)CC1)c1cccs1,MIC,H37Rv,-,-,-,6.25 µg/mL
CC(=O)N/C(=C/c1ccccc1)C(=O)O,MIC,H37Rv,-,-,-,>100 µg/mL
O=c1nc2c(ncn2Cc2ccccc2)c(-c2cccs2)n1Cc1ccccc1,EC50,H37Rv,-,-,-,>12.5 µg/mL
CCOC(=O)c1sc(N)nc1C,MIC,H37Rv,-,-,-,>100 µg/mL
NC(=O)C1=C[C@H]2[C@H]3C=C[C@@]2(O)C(=O)O[C@@H]3O1,inhibition,H37Rv,BACTEC,-,12.5 µg/mL,98%
COc1ccc(C2c3c(nc(=S)[nH]c3N)Oc3c2c(C)nn3-c2ccccc2)cc1,inhibition,H37Rv,-,-,62.5 µg/mL,56%
O=C1C(=O)N(CCN2CCN(Cc3ccccc3)CC2)c2ccc(-c3ccccc3)cc21,MIC,H37Rv,-,-,-,≤20 µg/mL
O=C(O)c1cc(O)c(O)c(O)c1,MIC,H37Rv,-,-,-,>100 µg/mL
COC(=O)C1=C(C)NC(Nc2ccc([N+](=O)[O-])cc2O)=NC1c1ccc(Cl)cc1,MIC,MDR-TB,agar,-,-,32 µg/mL
CCOC(=O)C1=C(Nc2cccc3ccccc23)OC/C1=N\NC(=O)c1ccccc1O,inhibition,H37Rv,BACTEC,-,12.5 µg/mL,2%
CCCCCc1ccc(Oc2cccnc2C#N)c(O)c1,MIC100,-,-,-,-,0.313 µg/mL
CC(=O)Nc1ccc(S(=O)(=O)CC(=O)CS(=O)(=O)c2ccc(NC(C)=O)cc2)cc1,MIC bound,H37Rv,resazurin,-,-,>6.25 µg/mL
COc1ccc(C(=O)CC(=O)Nc2ccc(NS(=O)(=O)c3ccc(C)cc3)cc2)cc1,MIC,H37Rv,-,-,-,>100 µg/mL
O=C1NN=C(c2ccc([N+](=O)[O-])cc2)C1n1nc(-c2ccccc2)c2ccccc2c1=O,MIC bound,H37Rv,BACTEC,-,-,>12.5 µg/mL
CCCCCc1cc(=O)[nH]c2c1C(=O)c1c(CCCCC)cc(=O)[nH]c1C2=O,MIC90,H37Rv,resazurin / fluorescence,-,-,0.04 µg/mL
COC(=O)C1=C(C)NC(Nc2cc(O)cc(Cl)c2)=NC1c1ccc(Cl)cc1,MIC,XDR-TB,agar,-,-,>64 µg/mL
c1cnc2c(c1)ccc1ncccc12,MIC,H37Rv,BACTEC,-,-,≥12.5 µg/mL
CC(=O)N[C@H]1CN(c2ccc(N3C=NN(S(N)(=O)=O)CC3)c(F)c2)C(=O)O1,MIC,H37Rv,GFP / reporter gene,-,-,250 µg/mL
CC(=O)c1cccc(N)c1O.Cl,MIC,H37Rv,-,-,-,>100 µg/mL
Cc1nn(-c2ccccc2)c2c1C(c1cccc(Br)c1)C(C#N)=C(N)O2,inhibition,H37Rv,-,-,62.5 µg/mL,6%
O=C(O)CC1C=Cc2cc(S(=O)(=O)O)cc3cccc1c23,MIC,H37Rv,-,-,-,>100 µg/mL
COc1cc2c(c(OC)c1)C(O)=C1C(=O)C3C(O)=C(C(=O)NC(C)(C)C)C(=O)C(NC(=S)c4ccccc4)C3CC1C2,MIC bound,H37Rv,-,-,-,>6.25 µg/mL
NS(=O)(=O)N1CCN(c2ccc(N3C[C@H](O)OC3=O)cc2F)C=N1,MIC,H37Rv,GFP / reporter gene,-,-,1000 µg/mL
COc1ccccc1NC(=O)/C(Cc1nc2ccc([N+](=O)[O-])cc2[nH]c1=O)=N/NC(=O)C[N+](C)(C)C.[Cl-],MIC bound,H37Rv,BACTEC,-,-,>12.5 µg/mL
O=C(O)c1cccc2c1oc1ccccc12,MIC,H37Rv,-,-,-,>100 µg/mL
CCOC(=O)c1cc(=O)c2cc(CC)c(OCc3ccccc3)cc2o1,inhibition,H37Rv,BACTEC,-,12.5 µg/mL,93%
Cc1nn(-c2ccccc2)c2c1C(c1ccc(O)cc1)c1c(nc(=O)[nH]c1N)O2,inhibition,H37Rv,-,-,62.5 µg/mL,10%
CN(C)CCCc1ccncc1,MIC,H37Rv,-,-,-,>100 µg/mL

For reference, 6 entries again:

SMILES | read-out | strain | read by | mutations | tested at | result
O=c1nc2c(ncn2Cc2ccccc2)c(-c2ccccc2)n1Cc1ccccc1 | EC50 | H37Rv | - | - | - | >12.5 µg/mL
Nc1c(Br)cc(Br)c2c1C(=O)c1c(Br)cc(Br)c(N)c1C2=O | MIC | H37Rv | - | - | - | >100 µg/mL
COC(=O)N[C@H]1CN(c2ccc(N3C=NN(C)CC3)c(F)c2)C(=O)O1 | MIC | H37Rv | GFP / reporter gene | - | - | 250 µg/mL
NC(=O)C1=C[C@H]2[C@H]3C=C[C@@]2(O)C(=O)O[C@@H]3O1 | inhibition | H37Rv | BACTEC | - | 12.5 µg/mL | 98%
Cc1nn(-c2ccccc2)c2c1C(c1cccc(Br)c1)C(C#N)=C(N)O2 | inhibition | H37Rv | - | - | 62.5 µg/mL | 6%
COC(=O)C1=C(C)NC(Nc2ccc([N+](=O)[O-])cc2O)=NC1c1ccc(Cl)cc1 | MIC | MDR-TB | agar | - | - | 32 µg/mL